Reference: article PMC6449974

Experiments:
[1] = molecular target: native HIV-1 capsid (wild type CA lattice of authentic viral cores) (HIV-1 (pNL4.3-iGFP-ΔEnv and psPAX2)); assay: TIRF fluorescence microscopy binding assay
[2] = molecular target: native HIV-1 capsid (wild type CA lattice of authentic viral cores) (HIV-1 (pNL4.3-iGFP-ΔEnv and psPAX2)); assay: TIRF fluorescence microscopy binding assay; remark: listed apart in the source

How did the Kd [1] turn out when “wild type cyclophilin A (CypA) (from UniProt P62937 1-165) (enzyme)” was run?
Its Kd is 10.7 µM.

And the Kd [2]?
The Kd was 11.6 µM.

What about the stoichiometry N ([2]; scale: CypA loops occupied at saturation per capsid) of the same substance?
The stoichiometry N was 987.

And the stoichiometry N ([2]; scale: CypA molecules bound per capsid at saturation)?
Its stoichiometry N is 1380.

Where two headings read alike, the source gives them in different places.
